Earlier results in patent US20060271062A1 (priority 2005, published 2006).

System: lens epithelial cell
Conditions: rabbit eyes; cited from earlier work

For salmosin, the “Lens epithelial cell proliferation and migration” value is listed as “inhibit lens epithelial cell proliferation and migration”.
